Pooled drug test results. Numbers come from NIAID ChemDB, via PubChem.

Shared fields: tests in culture; agent: HIV-1; cells: MT-4; endpoint: EC50

ECn is the concentration giving n% inhibition of infection, replication or growth. Lines come from different laboratories, so protocols vary. An empty or dashed field is not shown.

smiles,method,strain,mutations,value
COc1cccc(C(=O)N2CCC(NC(=O)c3cc(O)c(O)c(O)c3)CC2)c1,MTT,IIIB,,>76.6 µM
C=C1C[C@@H](n2cnc3c(N)ncnc32)[C@@H]1CO,cytopathic effect / MTT,IIIB,,>100 µM
Cc1c(Cc2c(F)cccc2F)nc(SCc2ccc(C(C)C)cc2)[nH]c1=O,cytopathic effect / MTT,,RT-K103N,>62 µM
CCCCCCCCCCCCCCCCOC1OC(COS(=O)(=O)O)C(O)C(OC2OC(COS(=O)(=O)O)C(OS(=O)(=O)O)C(OC3OC(COS(=O)(=O)O)C(O)C(OC4OC(COS(=O)(=O)O)C(OS(=O)(=O)O)C(OC5OC(COS(=O)(=O)O)C(OS(=O)(=O)O)C(OS(=O)(=O)O)C5OS(=O)(=O)O)C4OS(=O)(=O)O)C3OS(=O)(=O)O)C2OS(=O)(=O)O)C1OS(=O)(=O)O,cytopathic effect / MTT,IIIB,,12 µg/mL
Nc1cc(Cl)nc(SC/C=C/c2ccccc2)n1,p24,RT-WT,,<0.15 µM
Cc1ccc(C(=O)N2CCC(NC(=O)c3cc(O)c(O)c(O)c3)CC2)cc1,MTT,IIIB,,>29.6 µM
CC(C)c1cc2c(c(O)c1O)[C@@]1(C(=O)O)CCCC(C)(C)C1CC2,,NL4-3 WT,,0.011 µM
COc1cccc(CSc2nc(N)cc(Cl)n2)c1,p24,RT-WT,,<0.27 µM
CCCN(C)C(=O)Oc1nsnc1-c1c(Cl)ccc(N)c1Cl,p24,HE/NEV(RT-Y181C),,>18 µM
COc1cc(NC(C)CCCN)c2ncccc2c1,MTT,NL4-3,,>100 µM
CCOP(=O)(N[C@@H](C)C(=O)OC)OC[C@H]1O[C@@H](n2cc(C)c(=O)[nH]c2=O)C[C@@H]1N=[N+]=[N-],cytopathic effect / MTT,IIIB,,0.93 µg/mL
CCCCCCCCCC(=O)O[C@@]12[C@H](OCC)[C@@H](C)[C@@]3(O)[C@@H](C=C(CO)C[C@]4(O)C(=O)C(C)=C[C@@H]34)[C@@H]1C2(C)C,cytopathic effect / MTT,IIIB,,0.1957 µg/mL
Cc1cn([C@H]2C[C@H](F)[C@@H](CO)O2)c(=O)[nH]c1=O,cytopathic effect,IIIB,,0.001 µM
NC(N)=NCCC[C@H](NC(=O)[C@@H](Cc1ccc(O)cc1)NC(=O)[C@H](Cc1ccc2ccccc2c1)NC(=O)[C@H](CCCN=C(N)N)NC(=O)[C@@H](N)CCCN=C(N)N)C(=O)O,cytopathic effect / MTT,IIIB,,>100 µM
CCc1cn([C@H]2CC[C@@H](CO)O2)c(=O)[nH]c1=O,cytopathic effect,IIIB,,>625 µM
CC(C)=CCN1c2cc(Cl)cc3[nH]c(=S)n(c23)C[C@@H]1C,,,RT-K70R L100I,<0.1 µM
Nc1ccn([C@H]2CC[C@@H](CO)O2)c(=O)n1,,IIIB,,2.2 µM
N#Cc1cc(Cl)cc(Oc2c(Br)ccc(CN3CC(=O)NC3=O)c2F)c1,MTT,K103N/Y181C,NNRTI-resistant (RT K103N/Y181C),>0.1 µM
Cc1cn([C@H]2C[C@H](N=[N+]=[N-])[C@@H](CO)O2)c(=O)[nH]c1=O,RT activity,HXB2-D184 (RT-M184V),RT-M184V,0.018 µM
CC(C)c1nc(CN(C)C(=O)N[C@H](C(=O)N[C@@H](Cc2ccccc2)C[C@H](O)[C@H](Cc2ccccc2)NC(=O)OCc2cncs2)C(C)C)cs1,cytopathic effect / MTT,IIIB,,0.026 µg/mL
N#Cc1cc(Cl)cc(Oc2c(Br)ccc(Cn3[nH]c(=O)[nH]c3=O)c2F)c1,MTT,K103N/Y181C,NNRTI-resistant (RT K103N/Y181C),0.028 µM
Cc1cn([C@H]2C[C@H](N=[N+]=[N-])[C@@H](CO)O2)c(=O)[nH]c1=O,cytopathic effect / MTT,IIIB,,0.0019 µM
CNC(=O)[C@H](OCc1ccccc1)[C@H](O)[C@@H](O)[C@@H](OCc1ccccc1)C(=O)N[C@H]1c2ccccc2C[C@H]1O,cytopathic effect / XTT,,,2 µM
Nc1ncnc2c1ncn2[C@@H]1O[C@H](CO)[C@H]2CC[C@H]21,MTT,NL4-3,,17.8 µg/mL
CCc1nc2sccn2c1C(=O)c1ccccc1,RT activity,IIIB,,37 µM
CN(C)C(=O)/C=C/CSc1nc(N)cc(Cl)n1,p24,MF (DLV-resistant),,<0.74 µM
CC1=C[C@H]2[C@@]3(O)[C@H](C)[C@@H](O)[C@]4(O)[C@H]([C@@H]3C=C(CO)C[C@@]2(O)C1=O)C4(C)C,cytopathic effect / MTT,IIIB,,>10 µg/mL
CC(C)=CCN1Cc2cc(Cl)cc3[nH]c(=S)n(c23)C[C@@H]1C,RT activity,IIIB,,0.33 µM
Nc1ccn([C@@H]2CC[C@H](CO)O2)c(=O)n1,,IIIB,,3.6 µM
Nc1ncnc2c1ncn2C1CC(CO)(CO)C1,cytopathic effect / MTT,IIIB,,>500 µM
CC(=O)c1ccc(C)cc1NC(C(N)=O)c1c(Cl)cccc1Cl,cytopathic effect / MTT,NL432,,0.0063 µg/mL
CCc1nc2ncccn2c1C(=O)c1ccco1,RT activity,IIIB,,>100 µM
N#Cc1cc(Cl)cc(Oc2c(Br)ccc(Cc3ccc[nH]c3=O)c2F)c1,MTT,,Wild type,0.025 µM
Cc1cc(C)cc(S(=O)(=O)N2CCC(NC(=O)c3cc(O)c(O)c(O)c3)CC2)c1,MTT,IIIB,,>74 µM
Cc1c(O)cccc1C(=O)N[C@@H](CSc1ccccc1)[C@H](O)CN1C[C@H]2CCCC[C@H]2C[C@H]1C(=O)NC(C)(C)C,cytopathic effect / MTT,NL4-3 WT,,0.014 µM
Cc1ccnc2c1NC(=O)c1cccnc1N2C1CC1,MTT,IIIB,,0.28 µM
CC1(C)C2CC[C@]3(C)C(C(=O)C=C4C5C[C@@](C)(C(=O)Nc6ccccn6)CC[C@]5(C)CC[C@]43C)[C@@]2(C)CC[C@@H]1O[C@H]1O[C@H](C(=O)Nc2ccccn2)[C@@H](O)[C@H](O)[C@H]1O[C@@H]1O[C@H](C(=O)Nc2ccccn2)[C@@H](O)[C@H](O)[C@H]1O,p24 / antigen,EVK,,3100 µg/mL
CC(C)CN(C[C@@H](O)[C@H](Cc1ccccc1)NC(=O)[C@H](CC(N)=O)NC(=O)c1ccc2ccccc2n1)C(=O)NC(C)(C)C,p24,NL4-3,PR-L10R L63P V82T,<0.4 µM
Cc1cn([C@@H]2CC(CO)(CO)CO2)c(=O)[nH]c1=O,,,,51 µg/mL
CCc1nc2ccccn2c1C(=O)c1cccc(O)c1,RT activity,IIIB,,>5 µM
OC[C@H]1N[C@H](CO)[C@@H](O)[C@@H]1O,cytopathic effect / MTT,IIIB,,>250 µg/mL
Nc1ccn([C@H]2C[C@H](F)[C@@H](CO)O2)c(=O)n1,cytopathic effect,IIIB,,16 µM
CCCCCCCCCC(=O)O[C@@]12[C@H](OCOC)[C@@H](C)[C@@]3(O)[C@@H](C=C(COC)C[C@]4(O)C(=O)C(C)=C[C@@H]34)[C@@H]1C2(C)C,cytopathic effect / MTT,IIIB,,0.0469 µg/mL
CCc1nc2ccccn2c1C(=O)c1cccs1,RT activity,IIIB,,13 µM
C[C@H](NC(=O)[C@H](Cc1ccc2ccccc2c1)NC(=O)[C@H](CCCN=C(N)N)NC(=O)[C@@H](N)CCCN=C(N)N)C(=O)N[C@@H](Cc1ccc(O)cc1)C(=O)N[C@@H](CCCN=C(N)N)C(=O)O,cytopathic effect / MTT,IIIB,,>100 µM
Cc1cn([C@H]2C[C@H](N=[N+]=[N-])[C@@H](CO)O2)c(=O)[nH]c1=O,MTT,IIIB,,<0.008 µM
CCOP(=O)(N[C@@H](CC(C)C)C(=O)OC)OC[C@H]1O[C@@H](n2cc(C)c(=O)[nH]c2=O)C[C@@H]1N=[N+]=[N-],cytopathic effect / MTT,IIIB,,0.2 µg/mL
Cc1cn([C@H]2C[C@H](N=[N+]=[N-])[C@@H](CO)O2)c(=O)[nH]c1=O,cytopathic effect / MTT,IIIB,,0.079 µM
CCc1nc2sccn2c1C(=O)c1ccc(O)cc1,RT activity,IIIB,,>42 µM
CCCN(C)C(=O)Oc1nsnc1-c1c(Cl)ccc(C(=O)OCC)c1Cl,cytopathic effect / MTT,IIIB,,0.15 µM
Cc1c(O)cccc1C(=O)N[C@@H](CSc1ccccc1)[C@H](O)CN1C[C@H]2CCCC[C@H]2C[C@H]1C(=O)NC(C)(C)C,cytopathic effect / MTT,IIIB,,0.01 µg/mL
N#Cc1cc(Cl)cc(Oc2c(Br)ccc(Cn3cn[nH]c3=O)c2F)c1,MTT,,Wild type,0.014 µM
Cc1cn(CC2(COCP(=O)(OC(C)C)OC(C)C)CC=CC2)c(=O)[nH]c1=O,,,,>100 µg/mL
Nc1ncnc2c1ncn2[C@@H]1CC(CO)(CO)CO1,,,,20.1 µg/mL
CCS(=O)(=O)N1CCC(NC(=O)c2cc(O)c(O)c(O)c2)CC1,MTT,IIIB,,>36.6 µM
N#Cc1cc(Cl)cc(Oc2c(Br)ccc(Cn3c(=O)[nH]c4ncccc43)c2F)c1,MTT,,Wild type,0.003 µM
CC(C)(C)NC(=O)[C@@H]1C[C@@H]2CCCC[C@@H]2CN1C[C@@H](O)[C@H](Cc1ccccc1)NC(=O)[C@H](CC(N)=O)NC(=O)c1ccc2ccccc2n1,p24,NL4-3,PR-V82T,<0.025 µM
CC(=O)c1ccc(C)cc1NC(C(N)=O)c1c(Cl)cccc1Cl,p24,clinical isolate A012D AZT-resistant,,0.023 µM
COC(=O)N[C@@H](Cc1c[nH]c2ccccc12)C(=O)NCCCC[C@@H](CO)N(CC(C)C)S(=O)(=O)c1ccc(N)cc1,cytopathic effect / MTT,NL4-3,,0.152 µM
CNC(=O)[C@@H](NC(=O)[C@H](OCc1ccccc1)[C@H](O)[C@@H](O)[C@@H](OCc1ccccc1)C(=O)N[C@H](C(=O)NC)C(C)C)C(C)C,cytopathic effect / XTT,,,1 µM
NCCCC[C@@H](NC(=O)[C@H](Cc1ccc2ccccc2c1)NC(=O)[C@H](CCCN=C(N)N)NC(=O)[C@@H](N)CCCN=C(N)N)C(=O)N1CCC[C@H]1C(=O)N[C@@H](CCCN=C(N)N)C(=O)O,cytopathic effect / MTT,IIIB,,>100 µM
CN1C(=O)NC(=O)C1Cc1ccc(Br)c(Oc2cc(Cl)cc(C#N)c2)c1F,MTT,,Wild type,0.004 µM
O=C1C=C2CC(OC3C[C@@]45OC(=O)C=C4C[C@@H]3N3CCCC[C@H]35)[C@@H]3C[C@@]2(O1)[C@H]1CCCN31,MTT,NL4-3,,120 µM
CC(=O)Nc1ccc(OC(=O)c2ccc(N=C(N)N)cc2)cc1,XTT / p24,,,50 µg/mL
Nc1nc2c(ncn2[C@H]2CO[C@@H](CO)O2)c(=O)[nH]1,,IIIB,,0.05 µM
CCOC(=O)c1c(C(C)C)c(C#N)c(=N)n2ccccc12,cytopathic effect,,,<8 µM
N#Cc1cc(Cl)cc(Oc2c(Br)ccc(Cn3cc(Cl)c(=O)[nH]c3=O)c2F)c1,MTT,K103N/Y181C,NNRTI-resistant (RT K103N/Y181C),0.01 µM
[N-]=[N+]=N[C@H]1C[C@H](n2ccc(N)nc2=O)O[C@@H]1CO,cytopathic effect,IIIB,,7.6 µM
CCCCCCCCCCCCCCCCCCOC1OC(COS(=O)(=O)O)C(OC2OC(COS(=O)(=O)O)C(OC3OC(COS(=O)(=O)O)C(OC4OC(COS(=O)(=O)O)C(OC5OC(COS(=O)(=O)O)C(OC6OC(COS(=O)(=O)O)C(OS(=O)(=O)O)C(OS(=O)(=O)O)C6O)C(OS(=O)(=O)O)C5O)C(O)C4OS(=O)(=O)O)C(O)C3OS(=O)(=O)O)C(OS(=O)(=O)O)C2O)C(OS(=O)(=O)O)C1O,cytopathic effect / MTT,IIIB,,0.6 µg/mL
Cc1cn([C@H]2C[C@H](N=[N+]=[N-])[C@@H](CO)O2)c(=O)[nH]c1=O,cytopathic effect,IIIB,,0.004 µM
O=C(NCCO)[C@H](OCc1ccccc1)[C@H](O)[C@@H](O)[C@@H](OCc1ccccc1)C(=O)N[C@H]1c2ccccc2C[C@H]1O,cytopathic effect / XTT,,,60 µM
O=C(NC1CCN(C(=O)c2ccccc2)CC1)c1cc(O)c(O)c(O)c1,MTT,IIIB,,>38.3 µM
CC(C)(C)OC(=O)[C@@H]1CCCN1C[C@H](O)[C@H](Cc1ccccc1)NC(=O)[C@H](CC(N)=O)NC(=O)OCc1ccccc1,cytopathic effect / MTT,IIIB,,158 µg/mL
Nc1ncnc2c1ncn2C1CCC1,cytopathic effect / MTT,IIIB,,>100 µM
CC(C)OP(=O)(COCC1(Cn2ccc(=O)[nH]c2=O)CC=CC1)OC(C)C,,,,60 µg/mL
Cc1cc(C)c(S(=O)(=O)N2CCC(NC(=O)c3cc(O)c(O)c(O)c3)CC2)c(C)c1,MTT,IIIB,,>19.9 µM
Nc1nc2c(ncn2C2CC(CO)(CO)C2)c(=O)[nH]1,cytopathic effect / MTT,IIIB,,>500 µM
CO[C@H]1O[C@@H](n2ccc(=O)[nH]c2=O)C[C@@H]1N=[N+]=[N-],cytopathic effect,IIIB,,0.36 µM